Anti-infective test results gathered from many reports (values: NIAID ChemDB through PubChem).

Common to all: host cell toxicity; measure: CC50

CCn: concentration that lowers growth or viability of the cells by n%. Neighbouring rows are from separate reports. Blank or dashed fields: not listed here. Two numbers with a dash give a range or band.

SMILES | cell line | read by | result
Cc1cc(O)c(O)c(O)c(=O)c1 | CEM-SS | absorbance | 2.1 µM
Cn1c2c(c(=O)n(C)c1=O)S[C@H]1[C@@H](O2)O[C@H](CO)[C@@H](O)[C@@H]1O | PBM | - | >100 µM
CCOC(=O)[C@@]1(C)CC[C@]2(C)CC[C@]3(C)C(=CC(=O)[C@@H]4[C@@]5(C)CC/C(=N\OCc6ccccc6Cl)C(C)(C)[C@@H]5CC[C@]43C)[C@@H]2C1 | CT26 | MTT | 31.36 µM
CC(=O)/C=C/c1cc(-c2ccccc2)cnc1Cl | RAW 264.7 | MTT | 127 µM
CCCc1cn([C@@H]2C[C@H](F)[C@@H](CO)O2)c(=O)[nH]c1=O | F5000 (human embryo) | - | 250 µM
Clc1ccc2c(-n3cc(-c4ccccc4)nn3)ccnc2c1 | BGM | MTT | ≥653 µM
CC(=O)OCC1=C[C@H]2[C@@H]3C(C)(C)[C@]3(OC(C)=O)[C@H](OC(=O)CCCCn3ccc(=O)n(CCCOC(=O)[C@]45CCCC[C@H]4C4=CC[C@@H]6[C@@]7(C)CC[C@H](O)C(C)(C)[C@@H]7CC[C@@]6(C)[C@]4(C)CC5)c3=O)[C@@H](C)[C@]2(O)[C@@H]2C=C(C)C(=O)[C@@]2(O)C1 | C8166 | MTT | >200 µM
Cc1cn(C2OC(CO)C(O)C2(F)F)c(=O)[nH]c1=O | CrFK | MTS | >100 µM
Clc1ncnc2c1ncn2C1C[C@H]2C[C@@H]1[C@@H]1CSC[C@H]21 | Huh | - | 20 µM
CCOC(=O)c1c(CO)n(C)c2cc(-c3cccnc3)c(O)c(CN(C)C)c12 | Huh7.3 | ATP | 100 µM
CC(C)N(Cc1cccc(OCCCCCC(=O)OC(=O)O)c1)C(=O)c1ccc(-c2cccc(NC=O)c2)cc1 | HEK 293 | - | >20 µM
O=C(NCc1ccc(Cl)cc1)c1c[nH]c2ccc(C#CCO)cc2c1=O | REF | - | 39.6 µM
CCOC(=O)[C@@]1(C)CC[C@]2(C)CC[C@]3(C)C(=CC(=O)[C@@H]4[C@@]5(C)CC/C(=N\OCc6cc(F)cc(F)c6)C(C)(C)[C@@H]5CC[C@]43C)[C@@H]2C1 | CT26 | MTT | 10.38 µM
O=C(NCc1ccc(Cl)cc1)c1c[nH]c2ccc(CCCO)cc2c1=O | REF | - | 48.7 µM
COc1ccc2nc3cc(Cl)ccc3c(NCCCCN3CCNCC3)c2c1 | KB cells | MTS | 0.125 µM
C/C=C/C(=O)O[C@@H]1[C@@H](C)[C@@]2(O)[C@@H](C=C(CO)C[C@]3(O)C(=O)C(C)=C[C@@H]23)[C@@H]2C(C)(C)[C@]12O | C8166 | MTT | >200 µM
COc1ccc(N(Cc2c(Cl)cccc2Cl)S(=O)(=O)c2cccc(C#N)c2)cc1C(=O)O | SG-Neo (L+I) | absorbance | >33 µM
C[C@H]1[C@H](O)[C@@H](CO)O[C@H]1n1cc(F)c(=O)[nH]c1=O | RPMI8226 | - | 67.5 µg/mL
O=C(NCCSSCCNC(=O)/C(Cc1ccc(O)c(Br)c1)=N/O)/C(Cc1ccc(O)c(Br)c1)=N\O | Replicon cells | XTT | 22.7 µM
CCOC(=O)c1c(CS(=O)c2ccccc2)n(C)c2cc(-c3cccnc3)c(O)c(CN(C)C)c12 | Huh7.3 | ATP | 80.5 µM
Nc1ncc(N)c(NCC2(CO)CC(CCc3ccccc3)C2)n1 | MDCK | - | 22–49 µM
N[C@@H](Cc1cnc[nH]1)C(=O)NCCCCCCNc1c2ccccc2nc2ccccc12 | KB cells | MTS | 3.7 µM
CC1=NO[C@]2(CC[C@H](C)N3C[C@H]2n2cc(C(=O)NCc4ccc(F)cc4F)c(=O)c(O)c2C3=O)C1 | MT-4 | luminescence | 50 µM
Nc1nc(Cl)c(C=O)c(NCC2(CO)CC(CCc3ccccc3)C2)n1 | MDCK | - | 9.6–12 µM
CC(=O)O[C@@]12[C@H](OC(=O)CCCCCCCBr)[C@@H](C)[C@@]3(O)[C@@H](C=C(CO)C[C@]4(O)C(=O)C(C)=C[C@@H]34)[C@@H]1C2(C)C | C8166 | MTT | 80.6 µM
CCOC(=O)[C@@]1(C)CC[C@]2(C)CC[C@]3(C)C(=CC(=O)[C@@H]4[C@@]5(C)CC/C(=N\OCc6ccccc6C#N)C(C)(C)[C@@H]5CC[C@]43C)[C@@H]2C1 | CT26 | MTT | 76.52 µM
OCC12C(c3ccccc3)C3(CO)C4N(Cc5ccccc5)C1C1(CO)C(C5C=CC=CC5)C4(CO)C3N(Cc3ccccc3)C21 | EPG85-257DB | - | 29.4 µM
CO[C@H]1C[C@H](n2cc(C)c(=O)[nH]c2=O)O[C@@H]1COP(=O)(OC[C@H]1O[C@@H](n2cc(C)c(=O)[nH]c2=O)C[C@@H]1OC)Oc1ccccc1 | JM | - | >500 µM
CC(C)(C)C(=O)OCn1nc([C@@H]2O[C@H](CO)[C@@H](O)[C@H]2O)c2ncnc(N)c21 | PRK/E6SM | - | 40 µg/mL
CCOC(=O)/C=C/c1cc(-c2ccccc2)cnc1Cl | RAW 264.7 | MTT | 21 µM
C[C@H](NP(=O)(OC[C@H]1O[C@@H](n2cc(I)c(=O)[nH]c2=O)C(F)(F)[C@@H]1O)Oc1ccccc1)C(=O)OCc1ccccc1 | CrFK | MTS | >70 µM
CCOc1cccc(-c2ccc(C(=O)N(Cc3cccc(OCCCCCC(=O)OC(=O)O)c3)C(C)C)cc2)c1 | HEK 293 | - | >20 µM
Nc1nc(Cl)c2ncn(/C=C3/C[C@H]3CO)c2n1 | H-1 | - | >50 µM
CC(C)(C)C(=O)OCn1nc([C@@H]2O[C@H](CO)C[C@H]2O)c2ncnc(N)c21 | PRK/E6SM | - | 200 µg/mL
CCOC(=O)/C=C1\NCCc2cc3c(cc21)OCO3 | HEK 293 | - | <7.5 µM
CCOC(=O)c1ccc(CO/N=C2\CC[C@]3(C)[C@H]4C(=O)C=C5[C@@H]6C[C@@](C)(C(=O)OCC)CC[C@]6(C)CC[C@@]5(C)[C@]4(C)CC[C@H]3C2(C)C)o1 | CT26 | MTT | 25.26 µM
CC(=O)O[C@@H]1[C@@H](OC(C)=O)[C@H](C)O[C@@H]2Oc3[nH]c(=O)[nH]c(=O)c3S[C@@H]21 | PBM | - | 70 µM
Cc1cc(=O)[nH]c2c1ccc1ncc(C(=O)O[C@@H]3CC4CCC3(C)C4(C)C)c(C)c12 | CAKI-1 | - | 4.3 µg/mL
Nc1nc2c(ncn2COCCO)c(=O)[nH]1 | P3HR-1 | - | 255 µM
O=C(N/N=C(/CS(=O)(=O)c1ccccc1)c1ccccc1)c1ccc([N+](=O)[O-])o1 | MDA-MB-231 | MTT | >50 µg/mL
CC/C=C\C/C=C\C/C=C\C/C=C\C/C=C\C/C=C\CCC(=O)O[C@@]12[C@H](O)[C@@H](C)[C@@]3(O)[C@@H](C=C(CO)C[C@]4(O)C(=O)C(C)=C[C@@H]34)[C@@H]1C2(C)C | C8166 | MTT | 46.9 µM
CCOC(=O)/C(=C\c1cc(-c2ccccc2)cnc1Cl)C(=O)c1ccccc1 | RAW 264.7 | MTT | 68 µM
CC(=O)O[C@H]1C[C@H](n2cc(C)c(=O)[nH]c2=O)O[C@@H]1CO | JM | - | 1000 µM
COc1cc(F)cc(-c2ccc(C(=O)N(Cc3cccc(OCCCCCC(=O)OC(=O)O)c3)C(C)C)cc2)c1 | RAJI | - | >20 µM
CC(C)c1nc(CN(C)C(=O)N[C@H](C(=O)N[C@@H](Cc2ccccc2)C[C@H](O)[C@H](Cc2ccccc2)NC(=O)OCc2cncs2)C(C)C)cs1 | EPG85-257DB | - | 80 µM
Clc1ncnc2c1ncn2C1C[C@H]2C[C@@H]1c1cscc12 | Huh | - | >16 µM
CO[C@H]1C[C@H](n2cc(C)c(=O)[nH]c2=O)O[C@@H]1COP(=O)(OCC(Cl)Cl)OC[C@H]1O[C@@H](n2cc(C)c(=O)[nH]c2=O)C[C@@H]1OC | JM | - | >1000 µM
Nc1nc(=O)n([C@@H]2O[C@H](CO)[C@@H](O)[C@@H]2F)cc1I | RPMI8226 | - | 10.51 µg/mL
C[C@H]1CC[C@]2(CC(=O)N(Cc3nc4ccccc4s3)O2)[C@H]2CN1C(=O)c1c(O)c(=O)c(C(=O)NCc3c(F)cc(F)cc3F)cn12 | MT-4 | luminescence | 50 µM
C/C(=C\c1cn(C)c2ccccc12)C(=O)Nc1ccc(C(C)(C)C)cc1 | Huh7.5 | MTT | 19.3 µM
Br.CN1C=CN(c2cccc(N3C=CN(C)C3)n2)C1 | PC-3 | sulforhodamine / absorbance | >30 µM
Nc1ncnc2c([C@@H]3O[C@H](CSCCC(N)C(=O)O)[C@@H](O)[C@H]3O)[nH]nc12 | PRK/E6SM | - | 400 µg/mL
CCOC(=O)CCCCCOc1cccc(CN(C(=O)c2ccc(-c3cnc(OC)nc3OC)cc2)C(C)C)c1 | RAJI | - | >20 µM
C[C@@H]1CO[C@]2(CC[C@H](C)N3C[C@H]2n2cc(C(=O)NCc4c(F)cc(F)cc4F)c(=O)c(O)c2C3=O)O1 | MT-4 | luminescence | 32.6 µM
C[C@H]1[C@H](O)[C@@H](CO)O[C@H]1n1cc(F)c(N)nc1=O | RPMI8226 | - | 66.9 µg/mL
CCOC(=O)/C=C/c1cc(CC)cnc1Cl | RAW 264.7 | MTT | 7 µM
COc1ccc2nc3cc(Cl)ccc3c(NCCN3CCNCC3)c2c1 | KB cells | MTS | 0.165 µM
CC(=O)O[C@H]1[C@@H](OC(C)=O)[C@@H](CO[Si](c2ccccc2)(c2ccccc2)C(C)(C)C)O[C@@H](O[C@H]2[C@H](OC(C)=O)[C@H]3Sc4c(n(C)c(=O)n(C)c4=O)O[C@H]3O[C@@H]2CO[Si](c2ccccc2)(c2ccccc2)C(C)(C)C)[C@@H]1OC(C)=O | PBM | - | 100 µM
CC(=O)O[C@@]12[C@H](OC(=O)/C=C/c3ccc4c(c3)OCO4)[C@@H](C)[C@@]3(O)[C@@H](C=C(CO)C[C@]4(O)C(=O)C(C)=C[C@@H]34)[C@@H]1C2(C)C | C8166 | MTT | 105 µM
Nc1ncnc2c([C@@H]3O[C@H](CCl)[C@@H](O)[C@H]3O)[nH]nc12 | PRK/E6SM | - | 400 µg/mL
C[C@H]1[C@H](O)[C@@H](CO)O[C@H]1n1cc(Br)c(N)nc1=O | RPMI8226 | - | 84.8 µg/mL
O=C(N/N=C(/CS(=O)(=O)c1ccccc1)c1ccc(Cl)cc1)c1ccc([N+](=O)[O-])o1 | MDA-MB-231 | MTT | >50 µg/mL
CC1=NO[C@]2(CC[C@H](C)N3C[C@H]2n2cc(C(=O)NCc4ccc(F)cc4F)c(=O)c(O)c2C3=O)C1O | MT-4 | luminescence | 50 µM
C/C(=C\c1cn(CCN2CCOCC2)c2ccc(C#N)cc12)C(=O)Nc1ccc(C(C)(C)C)cc1 | Huh7.5 | MTT | >100 µM
COC(=O)c1cn(-c2ccnc3cc(Cl)ccc23)nn1 | BGM | MTT | ≥694 µM
Nc1nc(Cl)cc(NCCCO)n1 | MDCK | - | >490 µM
NCCNc1c2ccccc2nc2ccccc12 | KB cells | MTS | 1.78 µM
COC(=O)c1c(C)cc(=O)c(O)c(O)c1O | CEM-SS | absorbance | 1.4 µM
C[C@H]1[C@H](O)[C@@H](CO)O[C@H]1n1cc(Br)c(=O)[nH]c1=O | RPMI8226 | - | 60.4 µg/mL
Nc1nc(Cl)cc(NCC2(CO)CCCC2)n1 | MDCK | - | 5.5–39 µM
CC(=N\NC(=O)c1ccc([N+](=O)[O-])o1)/C(Cl)=N/Nc1ccc(S(N)(=O)=O)cc1 | MDA-MB-231 | MTT | >50 µg/mL
O=Cc1cn(-c2ccnc3cc(Cl)ccc23)nn1 | BGM | MTT | 477 µM
CCOC(=O)c1c(CSc2ccccc2)n(C)c2cc(Br)c(O)c(CN(C)C)c12.Cl | Huh7.3 | ATP | 18.9 µM
COc1ccc2c(c1)c(/C=C(\C)C(=O)Nc1ccc(C(C)(C)C)cc1)cn2S(=O)(=O)Cc1ccccc1 | Huh7.5 | MTT | 66 µM
CC(C)(O)c1cn(-c2ccnc3cc(Cl)ccc23)nn1 | BGM | MTT | ≥694 µM
CC(=O)OC[C@H]1O[C@@H]2Oc3c(c(=O)n(C)c(=O)n3C)S[C@@H]2[C@@H](OC(C)=O)[C@H]1OC(C)=O | PBM | - | 39 µM
CCOC(=O)CCCCCOc1cccc(CN(C(=O)c2ccc(-c3cc(OC)ccc3F)cc2)C(C)C)c1 | BJ | - | >20 µM
Nc1ncnc2c1ncn2C1C[C@H]2C[C@@H]1[C@@H]1CSC[C@H]21 | Huh | - | >348 µM

8 of the rows above, restated:

{"SMILES": "O=C(N/N=C(/CS(=O)(=O)c1ccccc1)c1ccccc1)c1ccc([N+](=O)[O-])o1", "cell line": "MDA-MB-231", "read by": "MTT", "result": ">50 µg/mL"}
{"SMILES": "CC(=N\\NC(=O)c1ccc([N+](=O)[O-])o1)/C(Cl)=N/Nc1ccc(S(N)(=O)=O)cc1", "cell line": "MDA-MB-231", "read by": "MTT", "result": ">50 µg/mL"}
{"SMILES": "CCOC(=O)CCCCCOc1cccc(CN(C(=O)c2ccc(-c3cnc(OC)nc3OC)cc2)C(C)C)c1", "cell line": "RAJI", "result": ">20 µM"}
{"SMILES": "COc1ccc(N(Cc2c(Cl)cccc2Cl)S(=O)(=O)c2cccc(C#N)c2)cc1C(=O)O", "cell line": "SG-Neo (L+I)", "read by": "absorbance", "result": ">33 µM"}
{"SMILES": "CCOC(=O)/C=C1\\NCCc2cc3c(cc21)OCO3", "cell line": "HEK 293", "result": "<7.5 µM"}
{"SMILES": "CC(=O)O[C@H]1C[C@H](n2cc(C)c(=O)[nH]c2=O)O[C@@H]1CO", "cell line": "JM", "result": "1000 µM"}
{"SMILES": "CCOc1cccc(-c2ccc(C(=O)N(Cc3cccc(OCCCCCC(=O)OC(=O)O)c3)C(C)C)cc2)c1", "cell line": "HEK 293", "result": ">20 µM"}
{"SMILES": "CC(=O)OC[C@H]1O[C@@H]2Oc3c(c(=O)n(C)c(=O)n3C)S[C@@H]2[C@@H](OC(C)=O)[C@H]1OC(C)=O", "cell line": "PBM", "result": "39 µM"}